Data set [1] concerns P. falciparum K1 (CQ-resistant). The data set is described as follows: In vitro antiplasmodial activity, 3H-hypoxanthine incorporation, strain K1. It is filed as cell-based, Plasmodium falciparum. To be noted: RI = IC50 K1/IC50 3D7. As for the experimental part: The following strains of Plasmodium falciparum were used in this study: F32 (Tanzania), Dd2 (SE Asia), K1 (SE Asia), FcB1 (Colombia), K14 (Cambodia) and 3D7 (Africa). […] Parasites at the ring stage (laboratory A) or asynchronous parasites (laboratory B) were grown in human A+ or O+ red blood cells at a 1.5% (laboratory A) or 2% (laboratory B) haematocrit and a 0.8–1% parasitaemia. Synchronization of the parasites was performed by sorbitol treatment.
Further dilutions were in complete culture medium. The complexes were tested for their inhibitory effect toward P. falciparum intraerythrocytic development. […] 100 μL from a culture at a 3% (laboratory A) or 4% (laboratory B) hematocrit in complete medium was added per well. […] Plates were freeze-thawed and harvested on filters. […] The percentage of growth inhibition was calculated from the parasite-associated radioactivity. 100% ^3H-hypoxanthine incorporation was determined from a control grown in the absence of drug or test compound.

The subject of a further data set is rat L-6 cell line. The data set can be described thus: Cytotoxicity, MTT, L6 cells. Type of data set: cell-based. To be noted: CC50 L6 / IC50 P. falciparum. As for the experimental part:
(§1) The rat L-6 and human MRC-5 cell lines were routinely grown in RPMI 1640 supplemented with 11 mM glucose, 27.5 mM NaHCO3, 100 UI/mL penicillin, 100 μg/mL streptomycin and 10% fetal calf serum (RPMI-FCS), in a 5% CO2 incubator at 37°C. For cytotoxicity assays, 100 μL per well of a 2×10^4 cells/mL suspension in RPMI-FCS were deposited in a 96-well microplate and incubated overnight in culture conditions. Then decreasing concentrations of the compounds to test were established by twofold serial dilutions in RPMI-FCS and distributed at a rate of 100 μL per well and the microplate was put back in the incubator for an additional three (L-6) or five (MRC-5) day period. Then the supernatant in each well was discarded and replaced by 100 μL of MTT 1 mg/mL in RPMI-FCS. The microplate was re-incubated in culture conditions for three hours, then 100 μL of 10% SDS was added by well. The cells were left overnight in the incubator then the OD at 540nm was measured with the Bio-Tek FL600™ microplate reader equipped with the KC4™ software. […] The selectivity of each compound to P. falciparum was assessed through the selectivity index (SI), defined as CC50 (to L6 or MRC5 cells) / IC50 (to P. falciparum).

A further data set relates to human MRC-5 cell line. The data set is described as follows: Cytotoxicity, MTT, MRC5 cells. It is filed as cell-based. To be noted: CC50 MRC5 / IC50 P. falciparum. As for the experimental part: as §1

The structures appear in SMILES notation.

`CCN(CC)Cc1ccc(CNc2ccnc3cc(Cl)ccc23)cc1` [Compound 3, 7-Chloro-N-(4-((diethylamino)methyl)benzyl)quinolin-4-amine]: the figures for the “Resistance Index K1/3D7” value in data set [1] (laboratory A) and in data set [1] (laboratory B) were 3.5 and 0.8, respectively.
In the case of `CCN(CC)Cc1ccccc1CNc1ccnc2cc(Cl)ccc12` [Compound 1, 7-Chloro-N-(2-((diethylamino)methyl)benzyl)quinolin-4-amine], the “SI (min-max), L6, CQR strains” value in the data set on rat L-6 cell line (CQ-resistant strains) is 442–2289. For the same compound, the “SI (min-max), L6, CQS strains” value with rat L-6 cell line (CQ-sensitive strains) is given as 923–2052. Moreover, the “SI (min-max), MRC5, CQR strains” value in the data set on human MRC-5 cell line (CQ-resistant strains) is reported as 421–2182. The “SI (min-max), MRC5, CQS strains” value in the data set with human MRC-5 cell line (CQ-sensitive strains) is 880–1955. For the same compound, the results for the “Resistance Index K1/3D7” value in data set [1] (laboratory A) and in data set [1] (laboratory B) were 3.9 and 0.7, respectively.
As for `CCN(CC)Cc1ccc(-c2ccc(CNc3ccnc4cc(Cl)ccc34)cc2)cc1` [Compound 4, 7-Chloro-N-((4’-((diethylamino)methyl)-[1,1’-biphenyl]-4-yl)methyl)quinolin-4-amine], the “Resistance Index K1/3D7” value in data set [1] (laboratory A) was 3.5; in data set [1] (laboratory B) it was 0.9.
The like results for `CCN(CC)Cc1cccc(CNc2ccnc3cc(Cl)ccc23)c1` [Compound 2, 7-Chloro-N-(3-((diethylamino)methyl)benzyl)quinolin-4-amine] were, in that order, 3.5 and 0.7.
The like results for `CCN(CC)Cc1cc(Nc2ccnc3cc(Cl)ccc23)ccc1O` [AQ, amodiaquine, reference compound] were, in that order, 1.4 and 0.8.

The record behind these values is article PMC4608832, “Synthesis of New 4-Aminoquinolines and Evaluation of Their In Vitro Activity against Chloroquine-Sensitive and Chloroquine-Resistant Plasmodium falciparum” (PLoS ONE, 2015).
